Anti-infective test results gathered from many reports (values: NIAID ChemDB through PubChem).

All rows: tests in culture; species: HIV-1

Percent inhibition refers to the dose given; in toxicity tests it is the harm to the cells.

CC(=O)N1CCC(C(=O)N(CCCN2CCC(Cc3ccc(C(N)=O)cc3)CC2)c2ccc(C)c(Cl)c2)CC1 ; strain or isolate: R5 subtype B_2 recombinant ; cells: U87 (CD4+ CCR5+) + U87 ; method: luciferase ; endpoint: EC50 ; value: 0.0071 µM
CC[C@@H](C)[C@H](C(=O)O)N1C[C@H](CN2CCC(c3cc(Cc4cccc5ccccc45)nn3CC)CC2)[C@@H](c2cccc(F)c2)C1 ; strain or isolate: BaL ; cells: HeLa ; method: β-galactosidase ; setting: 50% human serum ; endpoint: EC90 ; value: 0.033 µM
CC(C)=CCN1c2cc(Cl)cc3[nH]c(=S)n(c23)C[C@@H]1C ; changes: RT-K70R L100I ; cells: MT-4 ; endpoint: EC95 ; value: 0.1 µM
O=C(CSc1nnnn1-c1cccc2ccccc12)Nc1ccccn1 ; cells: MT-4 ; method: p24 ; endpoint: EC95 ; value: <10 µM
Cc1cn([C@H]2C=C[C@@H](CO)O2)c(=O)[nH]c1=O ; strain or isolate: Recombinant ; changes: RT-M41L V118I M184V ; cells: HeLa ; method: luciferase ; endpoint: fold resistance ; value: 1.1
O=C1N(Cc2ccc(CO)cc2)[C@H](Cc2ccccc2)[C@H](O)[C@@H](O)[C@@H](Cc2ccccc2)N1Cc1ccc(CO)cc1 ; strain or isolate: Clinical isolate W ; cells: PBMC ; method: p24 ; endpoint: inhibition ; tested at: 0.11 µM ; value: 90%
Nc1ccn([C@@H]2CS[C@H](CO)O2)c(=O)n1 ; changes: K65R ; cells: Primary T lymphocytes ; method: p24 / ELISA ; endpoint: EC90 ; value: 6 µM
CC[C@H](C)[C@H](C(=O)O)N1C[C@H](CN2CCC(c3cc(Cc4ccc(C)cc4)nn3CC)CC2)[C@@H](c2cccc(F)c2)C1 ; strain or isolate: BaL ; cells: HeLa ; method: β-galactosidase ; setting: 50% human serum ; endpoint: EC90 ; value: 0.011 µM
Cc1cn([C@H]2C[C@H](N=[N+]=[N-])[C@@H](CO)O2)c(=O)[nH]c1=O ; changes: 4xAZT ; cells: Primary T lymphocytes ; method: p24 / ELISA ; endpoint: EC90 ; value: 53.3 µM
CC(C)(C)NC(=O)[C@@H]1C[C@@H]2CCCC[C@@H]2CN1C[C@@H](O)[C@H](Cc1ccccc1)NC(=O)[C@H](CC(N)=O)NC(=O)c1ccc2ccccc2n1 ; strain or isolate: NL4-3 ; changes: PR-I84V ; cells: MT-4 ; method: p24 ; endpoint: EC95 ; value: 0.05 µM
c1cc(CN2CCCNCCNCCCNCC2)ccc1CN1CCCNCCNCCCNCC1 ; strain or isolate: SW5 CLADE C R5 ; cells: PBMC ; method: p24 ; endpoint: inhibition ; tested at: 0.5 µM ; value: 19%
CC[C@H](C)[C@H](C(=O)O)N1C[C@H](CN2CCC(c3cc(Cc4cccc5ccccc45)nn3CC)CC2)[C@@H](c2cccc(F)c2)C1 ; strain or isolate: BaL ; cells: HeLa ; method: β-galactosidase ; setting: 50% human serum ; endpoint: EC90 ; value: 0.011 µM
N#CC[C@H](C1CCCC1)n1cc(-c2ncnc3[nH]ccc23)cn1 ; changes: A62V V75I F77L F116Y Q151M ; cells: Primary T lymphocytes ; method: p24 / ELISA ; endpoint: EC90 ; value: 1.5 µM
Cc1cn([C@H]2C[C@H](N=[N+]=[N-])[C@@H](CO)O2)c(=O)[nH]c1=O ; strain or isolate: IIIB ; changes: R41K ; cells: MT-2 ; method: p24 / ELISA ; endpoint: fold resistance ; value: 1.6
CC[C@H](C)[C@H](C(=O)O)N1C[C@H](CN2CCC(c3cc(Cc4ccc5ccccc5c4)nn3CC)CC2)[C@@H](c2cccc(F)c2)C1 ; strain or isolate: BaL ; cells: HeLa ; method: β-galactosidase ; setting: 50% human serum ; endpoint: EC90 ; value: 0.3 µM
Cc1cn([C@H]2C[C@H](N=[N+]=[N-])[C@@H](COP(=O)(O)OC[C@H]3OC(O)[C@H](O)[C@@H](O)[C@@H]3O)O2)c(=O)[nH]c1=O ; strain or isolate: LAV-Bru ; cells: CEM ; method: RT activity ; setting: 7 d ; endpoint: inhibition ; tested at: 5 µM ; value: 95%
Cc1cc(S(N)(=O)=O)ccc1NC(=O)COc1ccc(Cl)cc1C(=O)c1cc(Cl)cc(C#N)c1 ; strain or isolate: NNRTI-resistant (RT V108I) ; changes: RT-V108I ; cells: MAGI ; method: β-galactosidase ; endpoint: fold resistance ; value: 1.7
CCN(c1nc(F)ccc1NC(C)(C)C)C1CCN(C(=O)c2cc3cc(NC(=O)N4CCN(C)CC4)ccc3[nH]2)CC1 ; strain or isolate: IIIB ; changes: 8374-P36 GS-8374-resistant ; cells: MT-2 ; method: ATP ; endpoint: fold resistance ; value: 1.4
Cc1cc(C)c(-n2nnnc2SCC(=O)Nc2ccccc2Cl)c(C)c1 ; cells: MT-4 ; method: p24 ; endpoint: EC95 ; value: <10 µM
O=C(O)P(=O)(O)O ; strain or isolate: IIIB ; cells: PBL ; method: RT activity ; setting: 28 d ; endpoint: inhibition ; tested at: 128 µM ; value: 83%
Cc1ccc(S(=O)(=O)N(CC(C)C)C[C@@H](O)[C@H](Cc2ccccc2)NC(=O)O[C@H]2CO[C@H]3OCC[C@H]32)cc1 ; strain or isolate: IIIB ; changes: 8374-P62 GS-8374-resistant ; cells: MT-2 ; method: ATP ; endpoint: fold resistance ; value: 3.6
Cc1cc(C)c(-n2nnnc2SCC(=O)Nc2cccc3cccnc23)c(C)c1 ; cells: MT-4 ; method: p24 ; endpoint: EC95 ; value: <10 µM
CCn1nc(Cc2ccc(OC3CC3)cc2)cc1C1CCN(C[C@H]2CN([C@@H](C(=O)O)C3CCCCC3)C[C@@H]2c2cccc(F)c2)CC1 ; strain or isolate: BaL ; cells: HeLa ; method: β-galactosidase ; endpoint: EC90 ; value: <0.00014 µM
Cc1cn([C@H]2C[C@H](N=[N+]=[N-])[C@@H](COP(=O)(O)OC[C@H]3OC(O)[C@@H](O)[C@@H](O)[C@@H]3O)O2)c(=O)[nH]c1=O ; strain or isolate: LAV-Bru ; cells: CEM ; method: RT activity ; setting: 22 d ; endpoint: inhibition ; tested at: 5 µM ; value: 0%
CC[C@@H](C)[C@H](C(=O)O)N1C[C@H](CN2CCC(c3cc(Cc4ccc(C(F)(F)F)cc4)nn3CC)CC2)[C@@H](c2cccc(F)c2)C1 ; strain or isolate: BaL ; cells: HeLa ; method: β-galactosidase ; setting: 50% human serum ; endpoint: EC90 ; value: 0.1 µM
Cc1ccnc2c1NC(=O)c1cccnc1N2C1CC1 ; strain or isolate: HXB41L/215Y( ; changes: RT-M41L T215Y ; cells: HT4 + HT4 LacZ-1 ; method: plaque count ; endpoint: EC50 ; value: 0.05 µM
Cc1cn([C@H]2C[C@H](N=[N+]=[N-])[C@@H](CO)O2)c(=O)[nH]c1=O ; strain or isolate: NRTI resistant ; changes: RT-M41L K70R T215F K219E ; cells: HeLa ; method: luciferase ; endpoint: fold resistance ; value: 83.7
O=C(CSc1nnnn1-c1ccccc1Br)Nc1ccccc1Cl ; cells: MT-4 ; method: p24 ; endpoint: EC95 ; value: <10 µM
CC(C)CN(C[C@@H](O)[C@H](Cc1ccccc1)NC(=O)O[C@H]1CCOC1)S(=O)(=O)c1ccc(N)cc1 ; strain or isolate: NL4-3 ; changes: PR-D30N A71V ; cells: MT-4 ; method: p24 ; endpoint: EC90 ; value: 0.02 µM
CC(=O)Nc1ccc(/C=C/c2ccc(N=C=S)cc2S(=O)(=O)O)c(S(=O)(=O)O)c1 ; strain or isolate: GB8 ; cells: JM ; method: syncytia ; endpoint: inhibition ; tested at: 25 µg/mL ; value: 37%
CCCCCCCCCCCCCCCCOP(=O)(OC[C@H]1OC(O)[C@H](O)[C@@H](O)[C@@H]1O)OC[C@H]1O[C@@H](n2cc(C)c(=O)[nH]c2=O)C[C@@H]1N=[N+]=[N-] ; strain or isolate: LAV-Bru ; cells: U-937 ; method: RT activity ; setting: 7 d ; endpoint: inhibition ; tested at: 0.2 µM ; value: 0%
CC[C@H](C)[C@H](C(=O)O)N1C[C@H](CN2CCC(c3cc(Cc4cccc(CN)c4)nn3CC)CC2)[C@@H](c2cccc(F)c2)C1 ; strain or isolate: BaL ; cells: HeLa ; method: β-galactosidase ; endpoint: EC90 ; value: 0.0012 µM
CC(C)CN(C[C@@H](O)[C@H](Cc1ccccc1)NC(=O)[C@H](CC(N)=O)NC(=O)c1ccc2ccccc2n1)C(=O)NC(C)(C)C ; strain or isolate: NL4-3 ; changes: PR-L10R M46I L63P 184V ; cells: MT-4 ; method: p24 ; endpoint: EC95 ; value: 1.5 µM
N#Cc1cc2[nH]c3ccccc3c2n(-c2ccc([N+](=O)[O-])cc2)c1=O ; strain or isolate: NNRTI-resistant ; changes: RT-K103N Y188L ; cells: HeLa ; method: luciferase ; endpoint: EC50 ; value: 0.109 µM

Again, the opening 3 rows:

compound,strain or isolate,changes,cells,method,setting,endpoint,tested at,value
CC(=O)N1CCC(C(=O)N(CCCN2CCC(Cc3ccc(C(N)=O)cc3)CC2)c2ccc(C)c(Cl)c2)CC1,R5 subtype B_2 recombinant,-,U87 (CD4+ CCR5+) + U87,luciferase,-,EC50,-,0.0071 µM
CC[C@@H](C)[C@H](C(=O)O)N1C[C@H](CN2CCC(c3cc(Cc4cccc5ccccc45)nn3CC)CC2)[C@@H](c2cccc(F)c2)C1,BaL,-,HeLa,β-galactosidase,50% human serum,EC90,-,0.033 µM
CC(C)=CCN1c2cc(Cl)cc3[nH]c(=S)n(c23)C[C@@H]1C,-,RT-K70R L100I,MT-4,-,-,EC95,-,0.1 µM

An empty or dashed field is not shown. Rows are shuffled and stem from different studies. ECn: concentration that inhibits the pathogen or its effect by n%. Fold resistance has wild type as its base.